A mixed list of measured activities; the numbers were collected in NIAID ChemDB.

All rows: whole-cell or culture tests; agent: HIV-1

Conditions beyond the fields shown may differ between rows.

smiles | setting | changes | read by | strain or isolate | measure | cells | value
CCNC(=O)NC(=O)COC(=O)c1c2c(nc3ccccc13)/C(=C/c1cccc([N+](=O)[O-])c1)CCC2 |  |  | β-galactosidase / GFP / reporter gene |  | EC50 | HEK 293 | 3 µM
Cc1ccc(-n2nnnc2SCC(=O)Nc2ccccc2Cl)c([N+](=O)[O-])c1 |  |  | p24 |  | EC95 | MT-4 | <10 µM
Cc1cc(C)cc(N2C(=O)CSC2c2c(Cl)cccc2Cl)c1 |  |  | cytopathic effect | IIIB | EC50 | MT-4 | 0.19 µM
CC(C)C1=C2C(CC1=O)[C@@H](C(=O)NCCN1CCS(=O)(=O)CC1)C[C@@H]1[C@@H]2CC[C@@H]2C3[C@H](C)C=C(C4=CCC(C(=O)O)CC4)C(C)(C)[C@@H]3CC[C@]21C |  | V370A | MTS / propidium iodide | NL4-3 | EC50 | MT-4 | >25 µM
O=S(=O)(Cc1ccccc1I)c1cccc[n+]1[O-] |  |  | syncytia | HE | EC50 | CEM | 11 µg/mL
CC/C=C\C/C=C\C/C=C\C/C=C\C/C=C\C/C=C\CCC(=O)O[C@@H]1[C@@H](C)[C@@]2(O)[C@@H](C=C(CO)C[C@]3(O)C(=O)C(C)=C[C@@H]23)[C@@H]2C(C)(C)[C@]12O |  |  | p24 / ELISA | IIIB | EC50 | C8166 | 5.06 µM
Nn1cc[nH]c1=S |  |  |  | NL4-3 | EC50 |  | 0.2–4 µg/mL
COC(=O)c1c(C(=O)OC)c(C)n(-c2ccccc2)c1C |  |  | p24 / ELISA | IIIB | EC50 | PBL | >10 µM
O=C1CSC(c2c(F)cccc2Cl)N1c1cc(F)cc(F)c1 |  |  | cytopathic effect | IIIB | EC50 | MT-4 | 0.25 µM
COC(=O)c1c(C(=O)OC)c2n(c1C)C(c1ccc(OC)cc1)SC2 |  |  | p24 / ELISA | IIIB | EC50 | PBL | >1 µM
CNC(=O)c1cc2ncn(-c3ccc(C#N)cc3)c2cc1Oc1c(C)cc(CCC#N)cc1C |  |  | luciferase | NL4-3 | EC50 | TZM-bl | >220 µM
COc1ccc(N(CC(=O)NCCCc2ccccc2)S(=O)(=O)c2ccc(Cl)c([N+](=O)[O-])c2)cc1 |  | N155H |  | IIIB | EC50 |  | 59 µM
O=C1CCN(C(=O)[C@H](Cc2ccccc2)NC(=O)c2ccccc2)C1 |  |  | syncytia / trypan blue |  | EC50 | MT-4 | >50 µM
CN(C)CCSc1cccc(-c2ccnc(-c3cccc(SCCN(C)C)c3)n2)c1 |  |  | RT activity | LAV-1 | EC50 | PBMC | 21.3 µM
CN(C)C1=C(C#N)/C(=C2/C(C#N)=C(N(C)C)N(c3ccc([N+](=O)[O-])cc3)c3c2n(C)c2ccccc32)c2c(c3ccccc3n2C)N1c1ccc([N+](=O)[O-])cc1 |  | RT-K65R | cytopathic effect / XTT | ddI-resistant (RT-K65R) | EC50 | CEM + CEM-SS | 0.62 µM
CCCCCCCCCCCCCCCCOP(=O)(OCCO[C@@H]1O[C@H](CO)[C@@H](O)[C@H](O)[C@@H]1O)OC[C@H]1O[C@@H](n2cc(C)c(=O)[nH]c2=O)C[C@@H]1N=[N+]=[N-] | 7 d |  | RT activity | LAV-Bru | EC50 | CEM | <0.2 µM
COc1cc(Cc2cnc(/N=C3\C(=O)N(CN4CCCC4)c4ccc(C)cc43)nc2N)cc(OC)c1OC |  |  | cytopathic effect |  | EC50 | CEM | >122 µM
COc1ccc(/C=C2/N=C(c3ccccc3)N(c3nc(C)cc(Cl)n3)C2=O)cc1 |  |  | RT activity |  | EC50 |  | 33.41 µg/mL
Nc1nc(N)c2ncn([C@H]3C[C@H](F)[C@@H](CO)O3)c2n1 |  |  | cytopathic effect | IIIB | EC50 | MT-4 | 4.5 µM
C/C=C1/N=C(C)N(c2nc(C)cc(=O)[nH]2)C1=O |  |  | RT activity |  | EC50 |  | 53.6 µg/mL
CCN1C(=O)NC(=O)C(C(C)C)C1CC1CC(C)CC(C#N)C1=O |  |  | p24 / ELISA | KM018 | EC50 | C8166 | 0.00667 µM
CCCCCCNc1ncnc2c1ncn2[C@H]1CC[C@@H](CO)O1 |  |  | cytopathic effect / MTT / p24 | RF | EC90 | C8166 | 100 µM
Cc1cc(C)cc(N2C(=O)CSC2c2c(F)cccc2F)c1 |  |  | cytopathic effect | IIIB | EC50 | MT-4 | 0.24 µM
CO[C@@H]1C[C@H](n2ccc3c(N)ncnc32)[C@@H](O)[C@H]1O |  |  |  | IIIB | EC50 | CEM | >250 µg/mL
Cc1cc(C)cc(C(=O)c2c(C(C)C)c(=O)[nH]c(=O)n2CC2=CCCC2)c1 |  | RT-K103N | cytopathic effect / XTT |  | EC50 | CEM + CEM-SS | 1.6 µM
O=C1CSC(c2c(F)cccc2F)N1c1ccccc1 |  |  | cytopathic effect | IIIB | EC50 | MT-4 | 0.4 µM
Cc1ccc(-c2c(C)c3c(c(C)c2[C@H](OC(C)(C)C)C(=O)O)N(S(C)(=O)=O)Cc2c(F)cccc2-3)cc1 |  |  | MTT |  | EC50 | MT-4 | 0.001 µM
COC(=O)c1ccc(NC(=O)CSc2nnnn2-c2c(C)cc(C)cc2C)c(Cl)c1 |  |  | p24 |  | EC95 | MT-4 | <10 µM
CC1=N/C(=C/c2ccc(Cl)cc2Cl)C(=O)N1c1nc(C)cc(Cl)n1 |  |  | RT activity |  | EC50 |  | 60.77 µg/mL
OCCC#Cc1nc(-c2ccc(F)cc2)c(-c2ccncc2)n1CCCc1ccccc1 |  |  | p24 | pNL4-3 | EC50 | Jurkat cells | <1 µM
Cc1c(C(=O)O)c(C(=O)c2ccccc2F)c(C)n1C |  |  | p24 / ELISA | IIIB | EC50 | PBL | >10 µM
CC/C=C\C/C=C\C/C=C\C/C=C\C/C=C\CCCC(=O)O[C@@H]1[C@@H](C)[C@@]2(O)[C@@H](C=C(CO)C[C@]3(O)C(=O)C(C)=C[C@@H]23)[C@@H]2C(C)(C)[C@]12OC(C)=O |  |  | p24 / ELISA | IIIB | EC50 | C8166 | 0.0041 µM
CC(C)C1=C2C(CC1=O)[C@@H](C(=O)NCCN(CCN(C)C)Cc1ccc(Cl)cc1)C[C@@H]1[C@@H]2CCC2C3C(CC[C@]21C)C(C)(C)C(C1=CC[C@H](C(=O)O)CC1)=C[C@H]3C |  |  | MTS / propidium iodide | NL4-3 | EC50 | MT-4 | 2.51 µM
CN(C)c1ccc(-n2nnnc2SCC(=O)Nc2ccccc2[N+](=O)[O-])c2ccccc12 |  |  | p24 |  | EC50 | MT-4 | <10 µM
O=C1CSC(c2c(F)cccc2Cl)N1c1cccc([N+](=O)[O-])c1 |  |  | cytopathic effect | IIIB | EC50 | MT-4 | 1.33 µM
O=C(CCSc1nnnn1-c1cccc2ccccc12)Nc1ccccc1[N+](=O)[O-] |  |  | p24 |  | EC50 | MT-4 | <10 µM
O=C(CNC(=O)COc1ccccc1)NCc1ccc(C(=O)N2CCCCC2)cc1 |  |  | RT activity | 93BR020 | EC50 | PBMC | 17.3 µM
CO[C@H]1C[C@@H](n2cnc3c(N)ncnc32)[C@H](O)[C@@H]1O |  |  |  | IIIB | EC50 | CEM | >250 µg/mL
N#Cc1cc2ccc(OC[C@H]3CCCN3)cc2n(-c2ccc([N+](=O)[O-])cc2)c1=O |  |  | GFP / reporter gene | IIIB | EC50 | MT-4 | 2.04 µM
CCCCCCCCC(=O)O[C@@]12[C@H](OC(=O)CCCCCC3SCC4NC(=O)NC43)[C@@H](C)[C@@]3(O)[C@@H](C=C(CO)C[C@]4(O)C(=O)C(C)=C[C@@H]34)[C@@H]1C2(C)C |  |  | p24 / ELISA | IIIB | EC50 | C8166 | 0.3019 µM
Cc1ccc(C)c(CS(=O)(=O)c2cccc[n+]2[O-])c1 |  | RT-Y181C | syncytia | IIIB | EC50 | CEM | 20 µg/mL
O=C1CSC(c2c(F)cccc2Cl)N1c1cccc(Br)c1 |  |  | cytopathic effect | IIIB | EC50 | MT-4 | 0.646 µM
CCn1c(C)c(C(=O)OC)c(C(=O)OC)c1CC(C)C |  |  | p24 / ELISA | IIIB | EC50 | PBL | >10 µM
CC(C)CC(NC(=O)OC(C)(C)C)C(=O)N1CCC(=O)C1 |  |  | syncytia / trypan blue |  | EC50 | MT-4 | >100 µM
Cc1ccc(-n2c(=O)c(C#N)c(N)c3ccc(Cl)cc32)cn1 |  |  | GFP / reporter gene | IIIB | EC50 | MT-4 | 6.17 µM
Cc1cc(C)cc(S(=O)(=O)c2c(C(=O)NCC(=O)NN)[nH]c3ccc(Cl)cc23)c1 |  |  | cytopathic effect / MTT | IIIB | EC90 | MT-4 | 0.03 µM
COc1cc(Cc2cnc(/N=C3\C(=O)N(CN4CCN(c5ccc(Cl)cc5)CC4)c4ccc(C)cc43)nc2N)cc(OC)c1OC |  |  | cytopathic effect |  | EC50 | CEM | >36.1 µM
CN(C)CCSc1nc(-c2cccs2)cc(-c2cccn2C)n1 |  |  | RT activity | LAV-1 | EC50 | PBMC | 15.9 µM
CCCCCCCCC(=O)O[C@@]12[C@H](OC(=O)/C=C/c3ccc(Br)cc3)[C@@H](C)[C@@]3(O)[C@@H](C=C(CO)C[C@]4(O)C(=O)C(C)=C[C@@H]34)[C@@H]1C2(C)C |  |  | p24 / ELISA | IIIB | EC50 | C8166 | 0.0038 µM
Cc1cc(C)cc(S(=O)(=O)c2c(C(N)=O)[nH]c3c(Cl)cc(Cl)cc23)c1 |  | RT-Y181C | cytopathic effect / MTT |  | EC50 | MT-4 | >100 µM
COc1cccc(N2C(=O)CSC2c2c(F)cccc2Cl)c1 |  |  | cytopathic effect | IIIB | EC50 | MT-4 | 3.29 µM
Cc1c(O)cccc1C(=O)N[C@@H](Cc1ccccc1)[C@H](O)CN1C[C@H]2CCCC[C@H]2C[C@H]1C(=O)NC(C)(C)C |  |  | cytopathic effect / XTT | HXB2 | EC50 | CEM + CEM-SS | 0.033 µM
CC(=O)OCC1=C[C@H]2[C@@H]3C(C)(C)[C@]3(OC(C)=O)[C@H](OC(C)=O)[C@@H](C)[C@]2(O)[C@@H]2C=C(C)C(=O)[C@@]2(O)C1 |  |  | p24 / ELISA | IIIB | EC50 | C8166 | 8.955 µM
Cc1cccc(N2C(=O)CSC2c2c(F)cccc2Cl)c1 |  |  | cytopathic effect | IIIB | EC50 | MT-4 | 0.21 µM
Cc1cc(/C=C/C#N)cc(C)c1Oc1cc(Nc2ccc(C#N)cc2)c(N)cc1S(N)(=O)=O |  |  | luciferase | NL4-3 | EC50 | TZM-bl | 0.0937 µM
CCCc1cc(=O)oc2c3c(c4c(c12)OC(C)(C)CC4)O[C@@H](C)[C@H](C)[C@@H]3O |  |  | cytopathic effect / XTT | NL4-3 | EC50 | CEM + CEM-SS | 0.5 µM
COc1cc(Cc2cnc(/N=C3\C(=O)N(CN4CCCCC4)c4ccc(C)cc43)nc2N)cc(OC)c1OC |  |  | cytopathic effect |  | EC50 | CEM | >105 µM
COC(=O)c1c(C(=O)OC)c2n(c1C)Cc1ccccc1C2 |  |  | p24 / ELISA | IIIB | EC50 | PBL | >10 µM
O=C1CCN(C(=O)[C@H](Cc2ccccc2)NC(=O)N(c2ccccc2)c2ccccc2)C1 |  |  | syncytia / trypan blue |  | EC50 | MT-4 | >100 µM
COc1cccc(N2CCN(CN3C(=O)/C(=N\c4ncc(Cc5cc(OC)c(OC)c(OC)c5)c(N)n4)c4cc(C)ccc43)CC2)c1 |  |  | cytopathic effect |  | EC50 | CEM | >11.9 µM
CNc1ncnc2c1ncn2[C@H]1CC[C@@H](CO)O1 |  |  | cytopathic effect / MTT / p24 | RF | EC90 | C8166 | 40 µM
CCn1c(C)c(C(=O)OC)c(C(=O)OC)c1Cc1ccccc1 |  | RT-D67N K70R T215Y K219Q | cytopathic effect / MTT | G910-6 (RT D67N K70R T215Y K219Q) | EC50 | MT-4 | 6.8 µM
Cc1ccc(-c2c(C)c3c(c(C)c2[C@H](OC(C)(C)C)C(=O)O)N(S(C)(=O)=O)Cc2cc(F)ccc2-3)cc1 |  |  | MTT |  | EC50 | MT-4 | 0.057 µM
CC(C)(C)OC(=O)N1CCC(=O)C1 |  |  | syncytia / trypan blue |  | EC50 | MT-4 | >100 µM
CC1=N/C(=C/C2C=Nc3ccccc32)C(=O)N1c1nc(C)cc(Cl)n1 |  |  | RT activity |  | EC50 |  | 58.88 µg/mL
COc1cnc(-n2cnc(C)n2)c2[nH]cc(C(=O)C(=O)N3CCN(C(=O)c4ccccc4)CC3)c12 |  | M426L | luciferase | NL4-3 | EC50 | U-87 | 0.0442 µM
Cc1ccc(-c2c(C)c3c(c(C)c2[C@H](OC(C)(C)C)C(=O)O)N(S(C)(=O)=O)Cc2cccc(F)c2-3)cc1 |  | T174I | MTT |  | EC50 | MT-4 | 0.29 µM
CCCCCCCCCCCCCCCCOP(=O)(OC[C@H]1OC(O)[C@@H](O)[C@@H](O)[C@@H]1O)OC[C@H]1O[C@@H](n2cc(C)c(=O)[nH]c2=O)C[C@@H]1N=[N+]=[N-] | 11 d |  | RT activity | LAV-Bru | EC50 | U-937 | >1 µM
NCCNc1nc(-c2ccoc2)cc(-c2cc3ccccc3s2)n1 |  |  | RT activity | LAV-1 | EC50 | PBMC | 1.6 µM
N#Cc1cc2ccc(O[C@H]3CCNC3)cc2n(-c2ccc([N+](=O)[O-])cc2)c1=O |  |  | GFP / reporter gene | IIIB | EC50 | MT-4 | 1.5 µM
CN(CCCN)CCCNc1nc(-c2cccs2)cc(-c2cccs2)n1 |  |  | RT activity | LAV-1 | EC50 | PBMC | 67.7 µM
Nc1ccn([C@@H]2CS[C@H](CO)O2)c(=O)n1 |  | M184I | luciferase | NL4-3 | EC50 | TZM-bl | 0.7808 µM

Again, the opening 5 rows:

| smiles | setting | changes | read by | strain or isolate | measure | cells | value |
|---|---|---|---|---|---|---|---|
| CCNC(=O)NC(=O)COC(=O)c1c2c(nc3ccccc13)/C(=C/c1cccc([N+](=O)[O-])c1)CCC2 |  |  | β-galactosidase / GFP / reporter gene |  | EC50 | HEK 293 | 3 µM |
| Cc1ccc(-n2nnnc2SCC(=O)Nc2ccccc2Cl)c([N+](=O)[O-])c1 |  |  | p24 |  | EC95 | MT-4 | <10 µM |
| Cc1cc(C)cc(N2C(=O)CSC2c2c(Cl)cccc2Cl)c1 |  |  | cytopathic effect | IIIB | EC50 | MT-4 | 0.19 µM |
| CC(C)C1=C2C(CC1=O)[C@@H](C(=O)NCCN1CCS(=O)(=O)CC1)C[C@@H]1[C@@H]2CC[C@@H]2C3[C@H](C)C=C(C4=CCC(C(=O)O)CC4)C(C)(C)[C@@H]3CC[C@]21C |  | V370A | MTS / propidium iodide | NL4-3 | EC50 | MT-4 | >25 µM |
| O=S(=O)(Cc1ccccc1I)c1cccc[n+]1[O-] |  |  | syncytia | HE | EC50 | CEM | 11 µg/mL |

Two numbers with a dash give a range or band. ECn: concentration that inhibits the pathogen or its effect by n%. Blank or dashed fields: not listed here.